Results of unrelated studies side by side (data: NIAID ChemDB).

Common to all: growth or infection tests; species: HIV-1; cells: MT-2; measure: EC50

Rows are shuffled and stem from different studies. An empty or dashed field is not shown. ECn: concentration that inhibits the pathogen or its effect by n%.

O=C(/C=C/c1ccc(O)c(O)c1)NCCCC(NC(=O)/C=C/c1ccc(O)c(O)c1)C(=O)O ; strain: LAI ; read by: cytopathic effect / neutral red ; result: 7.2 µM
CC(C)C1=C2[C@H]3CC[C@@H]4[C@@]5(C)CC[C@H](OC(=O)[C@H]6C[C@@H](C(=O)O)C6(C)C)C(C)(C)[C@@H]5CC[C@@]4(C)[C@]3(C)CC[C@@]2([C@@H](O)CNCc2ccc(Cl)c(Cl)c2)CC1=O ; strain: 92HT599 ; read by: p24 / ELISA ; result: <1 µM
Cc1ncc(-c2cnc(OCCC3CCCC3)c(F)c2)c(N2CCC(C)(C)CC2)c1[C@H](OC(C)(C)C)C(=O)O ; strain: NL4-3 ; read by: luminescence ; result: 0.0066 µM
Cn1nc(NS(C)(=O)=O)c2c(Cl)ccc(-n3c([C@H](Cc4cc(F)cc(F)c4)NC(=O)Cn4nc(C5CC5)c5c4C(F)(F)[C@@H]4C[C@H]54)nc4nc(OCCC(F)(F)F)ccc4c3=O)c21 ; strain: NL4-3 ; read by: luciferase ; result: 0.000014 µM
CC(C)C#CC1(C2CC2)NS(=O)(=O)Nc2ccc(Cl)cc21 ; strain: RF ; result: <0.182 µM
COC(=O)C(CCNC(=O)/C=C/c1cc(OC)c(OC)c(OC)c1)NC(=O)/C=C/c1cc(OC)c(OC)c(OC)c1 ; strain: LAI ; read by: cytopathic effect / neutral red ; result: >62.5 µM
CC(C)C1=C2[C@H]3CC[C@@H]4[C@@]5(C)CC[C@H](OC(=O)[C@H]6C[C@@H](C(=O)O)C6(C)C)C(C)(C)[C@@H]5CC[C@@]4(C)[C@]3(C)CC[C@@]2(CCNCC(C)(C)NC(=O)c2ccc(N3CCC(O)CC3)cc2)CC1=O ; strain: 92HT599 ; read by: p24 / ELISA ; result: <1 µM
COC(=O)C(CCCNC(=O)/C=C/c1ccc(O)c(O)c1)NC(=O)/C=C/c1ccc(O)c(O)c1 ; strain: LAI ; read by: cytopathic effect / neutral red ; result: >62.5 µM
CC(C)C1=C2[C@H]3CC[C@@H]4[C@@]5(C)CC[C@H](OC(=O)[C@H]6C[C@@H](C(=O)O)C6(C)C)C(C)(C)[C@@H]5CC[C@@]4(C)[C@]3(C)CC[C@@]2([C@@H](O)CNCC(C)(C)NC(=O)c2ccc(Cl)c(Cl)c2)CC1=O ; strain: 92HT599 ; read by: p24 / ELISA ; result: <1 µM
CC1(C)C(c2ccc(C(=O)O)cc2)=CC[C@]2(C)CN(C(=O)C3(Cc4ccccc4)CCNCC3)CC=C12 ; strain: NL4-3 ; mutations: Renilla luciferase reporter Gag P373S ; read by: luciferase / luminescence ; result: 0.61 µM
CCOCC(C)Oc1ccc(-c2cnc(C)c([C@H](OC(C)(C)C)C(=O)O)c2N2CCC(C)(C)CC2)nc1 ; strain: NL4-3 ; read by: luminescence ; result: 0.0016 µM
CC(C)C#CC1(C(C)C)NS(=O)(=O)Nc2ccc(Cl)cc21 ; strain: RF ; result: <0.643 µM
CC1(C)C(c2ccc(C(=O)O)cc2)=CC[C@]2(C)CN(C(=O)c3ccccc3-c3nc4c(Cl)cc(Cl)cc4[nH]3)CC=C12 ; strain: NL4-3 ; mutations: Renilla luciferase reporter Gag P373S ; read by: luciferase / luminescence ; result: >3 µM
Cc1ncc(-c2cnc(OCC3CC3)c(F)c2)c(N2CCC(C)(C)CC2)c1[C@H](OC(C)(C)C)C(=O)O ; strain: NL4-3 ; read by: luminescence ; result: 0.0033 µM
CC(C)C1=C2[C@H]3CC[C@@H]4[C@@]5(C)CC[C@H](OC(=O)[C@H]6C[C@@H](C(=O)O)C6(C)C)C(C)(C)[C@@H]5CC[C@@]4(C)[C@]3(C)CC[C@@]2(CC(=O)NCc2ccc(Cl)cc2OCCN2CCCCC2)CC1=O ; strain: 92HT599 ; read by: p24 / ELISA ; result: <1 µM
O=C(Oc1ccc2c(c1OC(=O)c1ccccc1)C(=O)c1ccccc1C2=O)c1ccccc1 ; read by: cytopathic effect ; result: >100 µM
Cc1ccc(C(=O)Nc2cccc(C(=O)N/N=C/c3ccc(Br)cc3)c2)cc1 ; strain: IIIB ; read by: cytopathic effect / XTT / ELISA ; result: >100 µg/mL
COc1ccc(C(=O)NC(C)(C)CNC(=O)C[C@@]23CC[C@]4(C)[C@H](CC[C@@H]5[C@@]6(C)CC[C@H](OC(=O)[C@H]7C[C@@H](C(=O)O)C7(C)C)C(C)(C)[C@@H]6CC[C@]54C)C2=C(C(C)C)C(=O)C3)cc1 ; strain: 92HT599 ; read by: p24 / ELISA ; result: <1 µM
Cc1ncc(-c2ccc(O[C@@H](C)COc3ccccc3)cn2)c(N2CCC(C)(C)CC2)c1[C@H](OC(C)(C)C)C(=O)O ; strain: NL4-3 ; read by: luminescence ; result: 0.0022 µM
COc1cc(Cl)ccc1C(=O)NC(C)(C)CNCC[C@@]12CC[C@]3(C)[C@H](CC[C@@H]4[C@@]5(C)CC[C@H](OC(=O)[C@H]6C[C@@H](C(=O)O)C6(C)C)C(C)(C)[C@@H]5CC[C@]43C)C1=C(C(C)C)C(=O)C2 ; strain: 92HT599 ; read by: p24 / ELISA ; result: <1 µM
O=C(/C=C/c1ccc(O)c(O)c1)NCCCC[C@H](NC(=O)/C=C/c1ccc(O)c(O)c1)C(=O)O ; strain: LAI ; read by: cytopathic effect / neutral red ; result: >62.5 µM
Cn1nc(NS(C)(=O)=O)c2c(Cl)ccc(-n3c([C@H](Cc4cc(F)cc(F)c4)NC(=O)Cn4nc(C5CC5)c5c4C(F)(F)[C@@H]4C[C@H]54)nc4nc(OCCC(C)(F)F)ccc4c3=O)c21 ; strain: NL4-3 ; read by: luciferase ; result: 0.000027 µM
O=C(/C=C/c1ccc(O)c(O)c1)NCC(NC(=O)/C=C/c1ccc(O)c(O)c1)C(=O)O ; strain: LAI ; read by: cytopathic effect / neutral red ; result: 4.5 µM
CC(C)(CN1CCCC1)NC(=O)[C@]12CC[C@@H](C3(C)CC3)[C@@H]1[C@H]1CC[C@@H]3[C@@]4(C)CC[C@H](OC(=O)CC(C)(C)C(=O)O)C(C)(C)[C@@H]4CC[C@@]3(C)[C@]1(C)CC2 ; strain: 92HT599 ; read by: p24 ; setting: 40% human serum ; result: ≤0.05 µM
Cc1cc(Cl)ccc1OCCNc1ccc(-c2cnc(C)c([C@H](OC(C)(C)C)C(=O)O)c2N2CCC(C)(C)CC2)cn1 ; strain: NL4-3 ; read by: luminescence ; result: 0.002 µM
[2H]C(CN)(CNC(=O)c1ccc(Cl)cc1)NC(=O)C[C@@]12CC[C@]3(C)[C@H](CC[C@@H]4[C@@]5(C)CC[C@H](OC(=O)[C@H]6C[C@@H](C(=O)O)C6(C)C)C(C)(C)[C@@H]5CC[C@]43C)C1=C(C(C)C)C(=O)C2 ; strain: 92HT599 ; read by: p24 / ELISA ; result: <1 µM
O=C1Nc2ccc(Cl)cc2[C@@](C#CC2CC2)(C(F)(F)F)N1 ; strain: RF ; result: <0.002 µM
CC(=O)Oc1c(OCC(=O)c2ccccc2)ccc2c1C(=O)c1ccccc1C2=O ; read by: cytopathic effect ; result: >100 µM
COC(=O)C(CCCCNC(=O)c1ccc(O)c(O)c1)NC(=O)c1ccc(O)c(O)c1 ; strain: LAI ; read by: cytopathic effect / neutral red ; result: >62.5 µM
Cc1ncc(-c2ccc(OCCCCF)cn2)c(N2CCC(C)(C)CC2)c1[C@H](OC(C)(C)C)C(=O)O ; strain: NL4-3 ; read by: luminescence ; result: 0.0017 µM
O=C(NCCCC[C@H](NC(=O)c1ccc(O)c(O)c1)C(=O)O)c1ccc(O)c(O)c1 ; strain: LAI ; read by: cytopathic effect / neutral red ; result: >62.5 µM
CC(C)C1(C#CC2CC2)NS(=O)(=O)Nc2ccc(Cl)cc21 ; strain: RF ; result: <0.677 µM

A second listing of 4 rows from above:

structure	strain	mutations	read by	setting	result
COC(=O)C(CCCNC(=O)/C=C/c1ccc(O)c(O)c1)NC(=O)/C=C/c1ccc(O)c(O)c1	LAI	-	cytopathic effect / neutral red	-	>62.5 µM
O=C1Nc2ccc(Cl)cc2[C@@](C#CC2CC2)(C(F)(F)F)N1	RF	-	-	-	<0.002 µM
O=C(NCCCC[C@H](NC(=O)c1ccc(O)c(O)c1)C(=O)O)c1ccc(O)c(O)c1	LAI	-	cytopathic effect / neutral red	-	>62.5 µM
CCOCC(C)Oc1ccc(-c2cnc(C)c([C@H](OC(C)(C)C)C(=O)O)c2N2CCC(C)(C)CC2)nc1	NL4-3	-	luminescence	-	0.0016 µM